This is an account of results in article PMC12356973.

The exact form of at least one protein or probe is not confirmed. At least one verdict was read from the data and is not stated in words by the source.

The target of this data set is nsp14 (Fe-S, two [Fe4S4] + one Zn, anoxic purification) (SARS-CoV-2) (UniProt P0DTD1). Description: EMSA. Particulars: untreated, [Fe4S4]2+ resting state; 5'-triphosphate; recombinant protein; protein details: C-terminal 2xStrep II.

On to AUUAAAGGUU [RNA-1 (5'-ppp RNA)], for which the binding result is on record as “binds”.
